The source of these data is PubChem BioAssay AID2629 (Broad Institute, 2010).

Chains of the proteins cited; added tags and fusions are not shown.
UniProt Q9QR71, whole entry: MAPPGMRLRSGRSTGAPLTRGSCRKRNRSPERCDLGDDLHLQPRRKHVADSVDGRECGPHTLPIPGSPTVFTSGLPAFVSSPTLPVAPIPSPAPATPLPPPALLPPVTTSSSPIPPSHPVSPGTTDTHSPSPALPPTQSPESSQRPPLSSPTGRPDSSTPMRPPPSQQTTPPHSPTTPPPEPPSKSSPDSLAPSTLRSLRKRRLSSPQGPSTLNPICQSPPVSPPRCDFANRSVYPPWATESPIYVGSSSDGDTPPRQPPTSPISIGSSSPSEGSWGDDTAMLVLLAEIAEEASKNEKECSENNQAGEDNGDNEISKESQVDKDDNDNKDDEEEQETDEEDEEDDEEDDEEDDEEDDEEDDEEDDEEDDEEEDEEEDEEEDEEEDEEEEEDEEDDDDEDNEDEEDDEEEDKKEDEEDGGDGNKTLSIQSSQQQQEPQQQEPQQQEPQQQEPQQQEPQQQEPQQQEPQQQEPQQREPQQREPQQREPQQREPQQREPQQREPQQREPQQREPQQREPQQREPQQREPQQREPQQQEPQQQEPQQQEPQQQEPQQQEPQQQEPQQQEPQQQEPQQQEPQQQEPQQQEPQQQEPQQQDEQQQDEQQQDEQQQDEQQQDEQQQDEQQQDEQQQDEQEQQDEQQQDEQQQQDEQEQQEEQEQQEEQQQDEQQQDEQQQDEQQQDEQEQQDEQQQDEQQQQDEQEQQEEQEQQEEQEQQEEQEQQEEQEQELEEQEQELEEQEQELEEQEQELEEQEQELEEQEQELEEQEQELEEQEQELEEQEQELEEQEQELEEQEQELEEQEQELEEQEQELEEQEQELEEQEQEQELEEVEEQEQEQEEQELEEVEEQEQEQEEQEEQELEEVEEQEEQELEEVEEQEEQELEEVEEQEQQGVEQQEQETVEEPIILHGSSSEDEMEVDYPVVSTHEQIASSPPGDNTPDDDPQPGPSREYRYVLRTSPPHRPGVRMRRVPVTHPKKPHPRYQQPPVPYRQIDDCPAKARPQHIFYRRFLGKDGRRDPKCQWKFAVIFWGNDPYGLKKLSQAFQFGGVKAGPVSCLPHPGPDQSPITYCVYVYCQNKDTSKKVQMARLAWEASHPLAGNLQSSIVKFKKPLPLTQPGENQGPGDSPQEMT

The entries are a selection whose mix differs from that of the whole data set. The source made the active and inactive calls. Rule as the data show it: active = inhibition mostly above about 10% (no sharp cut-off); inactive = mostly below about 6.7%.

This experiment has as its target Protein LANA1 (Human herpesvirus 8 type P (isolate GK18)) (UniProt Q9QR71). Put plainly: blockers of LANA interaction with H2A/H2B – biochemical, FP readout, HTS, primary screen (AID 2629). The note with it: cell-free LANA-H2A/H2B peptide, fluorescence polarization; hits give high values; concentration not given here.
In the case of `CCOc1ccc(C)cc1CN(CCCl)CCCl`, the inhibition was inactive: -5.97%.
Consider `O=C(NCC1(N2CCCCC2)CCCCC1)c1ccc(F)cc1`, for which the inhibition was inactive: -6.24%.
For the molecule `CCOC(=O)N1CCC(Nc2ccc(F)cc2)CC1`, the inhibition was inactive: 14.9%.
In the case of `COc1ccc(NC2CCN(CCc3ccccc3)CC2)c(OC)c1`, the inhibition was inactive: 5.68%.
Regarding `CCOC(=O)N1CCC(Nc2cccc(C)c2)CC1`, the inhibition was inactive: -2.8%.
Consider `COc1cc(C(=O)NCC2(N(C)C)CCCCC2)ccc1OC(F)F`, for which the inhibition is inactive: 2.58%.
As for `Cc1ccc(OCC(C)C)c(CN(CCCl)CCCl)c1`, the inhibition is inactive: -2.47%.
In the case of `O=C(NCC1(N2CCCCC2)CCCCC1)c1ccc(=O)[nH]c1`, the inhibition was inactive: 0.764%.
With `O=C(NCC1(N2CCCCC2)CCCCC1)c1cccs1`, the inhibition was inactive: 0.606%.
In the case of `COc1ccc(C(=O)NCC2(N3CCCCC3)CCCCC2)cc1`, the inhibition was inactive: 3.22%.
For the molecule `COc1ccc(C(=O)NCC2(N3CCCCC3)CCCCC2)c(OC)c1OC`, the inhibition is inactive: -2.93%.
Regarding `CC(C)(C)OC(=O)N1CCC(N(C(=O)c2ccccc2)c2ccc(F)cc2)CC1`, the inhibition was inactive: 0.426%.
For the molecule `CSc1ccccc1C(=O)NCC1(N2CCCCC2)CCCCC1`, the inhibition was inactive: 2.38%.
For the molecule `O=C(NCC1(N2CCOCC2)CCCCC1)c1cc2ccccc2o1`, the inhibition was inactive: 1.75%.
Turning to `O=C(NCC1(N2CCCCC2)CCCCC1)c1ccc(Cl)nc1`, the inhibition is inactive: -4.12%.
For `Cc1cc(C)cc(N(C(=O)c2ccccc2)C2CCN(C(=O)OC(C)(C)C)CC2)c1`, the inhibition is inactive: -3.52%.
Turning to `CCOC(=O)N1CCC(Nc2ccc(OC)cc2)CC1`, the inhibition was inactive: -6.73%.
The same measure for `N#CC1(Nc2ccccc2)CCN(Cc2ccccc2)CC1`: inactive: -3.75%.
Regarding `O=C(NCC1(N2CCCCC2)CCCCC1)c1ccc(Cl)s1`, the inhibition is inactive: 6.69%.
The same measure for `O=C(OC1CN2CCC1CC2)C1c2ccccc2Oc2ccccc21` (stereo unspecified): inactive: -4.49%.
Consider `COc1ccc(Cl)cc1C(=O)NCC1(N2CCOCC2)CCCCC1`, for which the inhibition was inactive: 3.48%.
For `COc1ccc(CN(CCCl)CCCl)cc1Cl`, the inhibition was inactive: 4.42%.
Take `CN(C)c1cccc(C(=O)NCC2(N3CCCCC3)CCCCC2)c1`: the inhibition is inactive: -3.46%.
Take `CC(C)c1ccc(NC2CCN(C(=O)OC(C)(C)C)CC2)cc1`: the inhibition is inactive: 0.702%.
The same measure for `COc1cc(OC)c(C(=O)NCC2(N(C)C)CCCCC2)cc1OC`: inactive: 1.15%; for `O=C(NCC1(N2CCOCC2)CCCCC1)c1cc(F)c(F)cc1Cl`: inactive: 0.681%.
In the case of `CN1CCC(Nc2cccc(F)c2)CC1`, the inhibition is inactive: -1.67%.
Consider `O=C(NCC1(N2CCCCC2)CCCCC1)c1cncc(Br)c1`, for which the inhibition was inactive: -9.05%.
For the molecule `CCCOc1ccc(C(=O)NCC2(N(C)C)CCCCC2)cc1OC`, the inhibition was inactive: 1.08%.
The same measure for `O=C(NCC1(N2CCCCC2)CCCCC1)c1ccc(OC(F)F)cc1`: inactive: -2.48%.
For `O=C(NCC1(N2CCCCC2)CCCCC1)c1cccc([N+](=O)[O-])c1`, the inhibition is inactive: 4.78%.
The same measure for `CCN1CCC(Nc2ccc(Cl)cc2)CC1`: inactive: 0.676%.
As for `N#CC1(Nc2ccccc2)CCN(CCc2ccccc2)CC1`, the inhibition was inactive: -4.81%.
The same measure for `O=C(NCC1(N2CCCCC2)CCCCC1)c1cccc(C(F)(F)F)c1`: inactive: 3.19%.
Consider `COc1ccc(NC2CCN(C(=O)OC(C)(C)C)CC2)cc1`, for which the inhibition is inactive: 3.26%.
As to `CN1CCN(CCOC(=O)C(O)(c2ccccc2)c2ccccc2)CC1`, the inhibition was inactive: 1.17%.
For `O=C(NCC1(N2CCOCC2)CCCCC1)c1cc(=O)[nH]c2ccccc12`, the inhibition was inactive: -0.374%.
In the case of `COc1cc(C(=O)NCC2(N3CCCCC3)CCCCC2)ccc1OC(F)F`, the inhibition is inactive: 1.13%.
The same measure for `CC(C)(C)OC(=O)N1CCC(N(C(=O)c2ccccc2)c2ccc(Cl)cc2)CC1`: inactive: -0.651%; for `N#Cc1ccc(C(=O)NCC2(N3CCCCC3)CCCCC2)cc1`: inactive: 0.544%; for `c1ccc(CN2CCC(Nc3ccccc3)CC2)cc1`: inactive: 4.56%.
In the case of `CCCN1CCC(Nc2cc(OC)cc(OC)c2)CC1`, the inhibition is inactive: 2.1%.
As to `CN(C)C1(CNC(=O)c2cccc(C#N)c2)CCCCC1`, the inhibition is inactive: -3.48%.
In the case of `O=C(NCC1(N2CCOCC2)CCCCC1)c1cc(Br)ccc1Cl`, the inhibition is inactive: 5.94%.
The same measure for `COc1cc(C(=O)NCC2(N3CCOCC3)CCCCC2)cc(OC)c1C`: inactive: -0.793%.
Regarding `COc1ccc(C(=O)NCC2(N3CCOCC3)CCCCC2)cc1OC`, the inhibition was inactive: -4.48%.
On to `N/C(=N\O)c1c(N)no[n+]1[O-]`, for which the inhibition was inactive: -5.45%.
The same measure for `CCOC(=O)N1CCC(Nc2ccc(C)cc2)CC1`: inactive: -1.71%; for `CCc1cc(C(=O)NCC2(N3CCCCC3)CCCCC2)sc1C`: inactive: -2.24%.
Take `O=C(OC1CN2CCC1CC2)C1c2ccccc2C=Cc2ccccc21` (stereo unspecified): the inhibition was inactive: 4.27%.
`CCOc1ncccc1C(=O)NCC1(N2CCOCC2)CCCCC1`: the inhibition was inactive: -5.39%.
Take `CN1CCC(Nc2ccc(F)c(Cl)c2)CC1`: the inhibition is inactive: -3.26%.
`CCCOc1ccc(C(=O)NCC2(N(C)C)CCCCC2)cc1`: the inhibition is inactive: -0.0383%.
`CC(C)(C)OC(=O)N1CCC(Nc2ccccc2)CC1`: the inhibition is inactive: -3.54%.
Turning to `O=C(O)C1(Nc2ccccc2)CCN(Cc2ccccc2)CC1`, the inhibition was inactive: -1.25%.
Consider `CCC(CO)(C(=O)OC1CN2CCC1CC2)c1ccccc1` (stereo unspecified), for which the inhibition is inactive: 3.26%.
On to `COc1cccc(C(=O)N(c2cc(C)cc(C)c2)C2CCN(C(=O)OC(C)(C)C)CC2)c1`, for which the inhibition is inactive: 1.55%.
With `COc1cc(OC)cc(C(=O)NCC2(N3CCOCC3)CCCCC2)c1`, the inhibition is inactive: 2.6%.
For the molecule `CCCOc1ccc(C)cc1CN(CCCl)CCCl`, the inhibition was inactive: -1.97%.
The same measure for `CN1CCC(Nc2ccc(Cl)cc2)CC1`: inactive: 7.82%; for `COc1cc(OC)cc(C(=O)NCC2(N3CCCCC3)CCCCC2)c1`: inactive: -5.87%.
Take `Cc1ccc(C(=O)NCC2(N3CCCCC3)CCCCC2)o1`: the inhibition is inactive: -2.47%.
For the molecule `Fc1ccccc1NC1CCN(Cc2ccccc2)CC1`, the inhibition was inactive: -1.03%.
Take `CCN1CCC(Nc2cccc(F)c2)CC1`: the inhibition is inactive: 3.71%.
Regarding `O=C(NCC1(N2CCCCC2)CCCCC1)c1ccco1`, the inhibition was inactive: -3.17%.
With `CN(C)c1ccc(C(=O)NCC2(N3CCCCC3)CCCCC2)cc1`, the inhibition is inactive: 2.35%.

One may read the inhibition as the relative decrease from the control value, in per cent.
